{"source": "PubChem BioAssay AID720554", "about": "(ICCB-Longwood Screening Facility, Harvard Medical School, 2013)", "note": "The entries are a selection whose mix differs from that of the whole data set. The source made the active and inactive calls. Rule as the data show it: active = inhibition mostly above about 83% (no sharp cut-off); inactive = mostly below about 52%."}
{"tested_on": "acyl-homoserine lactone synthase BmaI1 (Burkholderia mallei ATCC 23344)", "experiment": "BmaI1 acyl-homoserine lactone synthase inhibition – biochemical, fluorescence intensity, with counterscreen (AID 720554)", "conditions": "BmaI1 enzyme assay, stronger effect = higher value, concentration not given here"}
{"smiles": "CP(=O)(N1CCOCC1)N1CCOCC1", "inhibition": "inactive: 11.5%"}
{"smiles": "CCc1ccc(OP(C)(=O)Nc2cccnc2)cc1", "note": "(configuration not stated)", "inhibition": "inactive: 9.5%"}
